Where “and” joins values, the source holds several entries; their conditions need not be identical. Identical values can stand only once. Plain letter strings leave the end groups untold.
Experiment: general procedure: Fmoc solid-phase peptide synthesis; Rink amide resin (100 mg, 0.46 meq/g substitution); DCC / 6-Cl-HOBt
Details: whole synthesis, 210 nm, scale of the general procedure 100 mg resin

| Sequence | final HPLC purity [%] | final HPLC purity (run 1) |
| --- | --- | --- |
| ALQYIKLLKE | 99 |  |
| KKKMKKALQYIKLLKE | 74 |  |
| KKMKKALQYIKL | 97 |  |
| KKMKKALQYIKLLK | 99 |  |
| KKMKKALQYIKLLKE | 90 |  |
| KMKKALQY | 98 |  |
| KMKKALQYIKLLKE | 71 |  |
| MKKALQYIKLLKE | 98 |  |
| RKKKMKKALQY | 98 |  |
| RKKKMKKALQYIKLLKE |  | 86% and 95% |
| RYRRKKKMKK | 97 |  |
| RYRRKKKMKKA | 97 |  |
| RYRRKKKMKKALQY | 98 |  |
| RYRRKKKMKKALQYIKL | 100 |  |
| RYRRKKKMKKALQYIKLLKE | 96 |  |
